Molecular target: T1, FLAG-gB^23–431 (EBV glycoprotein B residues 23-431, CendR motif exposed) (Epstein-Barr virus, UniProt P03188 23-431)
T1 chain: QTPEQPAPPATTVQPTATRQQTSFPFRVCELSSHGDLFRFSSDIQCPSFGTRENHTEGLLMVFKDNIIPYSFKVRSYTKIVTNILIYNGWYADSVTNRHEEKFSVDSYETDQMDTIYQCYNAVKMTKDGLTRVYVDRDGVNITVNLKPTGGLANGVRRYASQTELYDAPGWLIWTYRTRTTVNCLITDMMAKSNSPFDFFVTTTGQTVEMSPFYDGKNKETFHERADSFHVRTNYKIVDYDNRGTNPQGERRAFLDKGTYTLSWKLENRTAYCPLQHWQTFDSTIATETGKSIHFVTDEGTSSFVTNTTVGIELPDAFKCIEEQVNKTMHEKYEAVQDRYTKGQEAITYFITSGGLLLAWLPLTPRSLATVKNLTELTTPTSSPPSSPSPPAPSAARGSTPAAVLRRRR
Assay: ELISA

B1: GST-NRP1^ABC (soluble extracellular ABC domain of NRP1) (domain or fragment)
chain: [about 600 residues not spelt out]TYGFNCEFGWGSHKTFCHWEHDNHVQLKWSVLTSKTGPIQDHTGDGNFIYSQADENQKGKVARLVSPVVYSQNSAHCMTFWYHMSGSHVGTLRVKLRYQKPEEYDQLVWMAIGHQGDHWKEGRVLLHKSLKLYQVIFEGEIGKGNLGGIAVDDISINNHISQEDCAKPADLDKKNPEIKIDETGSTPGYEGEGEGDKNISRKPGNVLKTLDPILITII
- EC50: 15.8 nM

B2: GST-NRP2^ABC (soluble extracellular ABC domain of NRP2) (domain or fragment)
chain: GGRLNSKDAGYITSPGYPQDYPSHQNCEWIVYAPEPNQKIVLNFNPHFEIEKHDCKYDFIEIRDGDSESADLLGKHCGNIAPPTIISSGSMLYIKFTSDYARQGAGFSLRYEIFKTGSEDCSKNFTSPNGTIESPGFPEKYPHNLDCTFTILAKPKMEIILQFLIFDLEHDPLQVGEGDCKYDWLDIWDGIPHVGPLIGKYCGTKTPSELRSSTGILSLTFHTDMAVAKDGFSARYYLVHQEPLENFQCNVPLGMESGRIANEQISASSTYSDGRWTPQQSRLHGDDNGWTPNLDSNKEYLQVDLRFLTMLTAIATQGAISRETQNGYYVKSYKLEVSTNGEDWMVYRHGKNHKVFQANNDATEVVLNKLHAPLLTRFVRIRPQTWHSGIALRLELFGCRVTDAPCSNMLGMLSGLIADSQISASSTQEYLWSPSAARLVSSRSGWFPRIPQAQPGEEWLQVDLGTPKTVKGVIIQGARGGDSITAVEARAFVRKFKVSYSLNGKDWEYIQDPRTQQPKLFEGNMHYDTPDIRRFDPIPAQYVRVYPERWSPAGIGMRLEVLGCDWTDSKPTVETLGPTVKSEETTTPYPTEEEATECGENCSFEDDKDLQLPSGFNCNFDFLEEPCGWMYDHAKWLRTTWASSSSPNDRTFPDDRNFLRLQSDSQREGQYARLISPPVHLPRSPVCMEFQYQATGGRGVALQVVREASQESKLLWVIREDQGGEWKHGRIILPSYDMEYQIVFEGVIGKGRSGEIAIDDIRISTDVPLENCME[about 40 residues not spelt out]
- EC50: 4.24 nM

— PMC4339892 (2015)
